The results in this text go back to publication PMC5666006 (Scientific Reports, 2017).

Some peptides are written in HELM: one residue between dots, names in brackets for other building blocks, links after the first $.

A short description of the data set: general procedure: Fmoc solid-phase peptide synthesis; 2-Chlorotrytil chloride resin; HOAt/PyBOP/DIEA; PyAOP/DIEA for cyclization. The following applies: whole synthesis, analytical HPLC at 220 nm.
Turning to “PEPTIDE1{E.[dP].W.E.[dP].W}$PEPTIDE1,PEPTIDE1,1:R1-6:R2$$$V2.0”, the “final HPLC purity” value is reported as 95%. As for “PEPTIDE1{R.P.[dW].R.P.[dW]}$PEPTIDE1,PEPTIDE1,1:R1-6:R2$$$V2.0”, the “final HPLC purity” value stood at 100%.

“PEPTIDE1{R.[dP].W.R.[dP].W}$PEPTIDE1,PEPTIDE1,1:R1-6:R2$$$V2.0”: the “final HPLC purity” value stood at 96%. The value for “PEPTIDE1{S.[dP].W.S.[dP].W}$PEPTIDE1,PEPTIDE1,1:R1-6:R2$$$V2.0” was 100%; that for “PEPTIDE1{W.[dP].R.W.[dP].R}$PEPTIDE1,PEPTIDE1,1:R1-6:R2$$$V2.0” was 92%.

With “PEPTIDE1{[ac].W.[dP].R.W.[dP].R}$$$$V2.0”, the “final HPLC purity” value came out at 100%. With “PEPTIDE1{[dR].P.W.[dR].P.W}$PEPTIDE1,PEPTIDE1,1:R1-6:R2$$$V2.0”, the “final HPLC purity” value was determined as 95%.
